Compound potency records, mixed from different reports. Data source: NIAID ChemDB in PubChem.

Common to all: target-level tests

Inhibition is in % at the dose shown (toxicity tests: loss of growth or viability).

{"compound": "CC[C@H](C)OC1C=C(C(=O)O)C[C@H](N)[C@H]1NC(C)=O", "organism": "Influenza A virus", "protein": "Neuraminidase", "read-out": "IC50", "value": "0.0008 µM"}
{"compound": "O=C(O)C(=O)O", "organism": "Influenza virus", "protein": "RNA-dependent RNA polymerase", "read-out": "IC50", "value": ">500 µM"}
{"compound": "CC(=O)N[C@H]1[C@H]([C@H](O)[C@H](O)CO)OC(C(=O)O)=C[C@@H]1N", "organism": "Influenza B virus", "protein": "Neuraminidase", "read-out": "Ki", "value": "0.1 µM"}
{"compound": "CC[C@@H](C)OC1C=C(C(=O)O)C[C@H](N)[C@H]1NC(C)=O", "organism": "Influenza A virus", "protein": "Neuraminidase", "read-out": "IC50", "value": "0.0007 µM"}
{"compound": "Cc1cc(=O)[nH]c(NC(=S)NC(=O)c2ccc(-c3ccccc3Cl)o2)n1", "organism": "Influenza A virus", "strain": "H1N1", "protein": "Neuraminidase", "read-out": "IC50", "value": "2.8 µM"}
{"compound": "CCC(CC)Nc1cc(C(=O)O)ccc1N1C(=O)CCC1(CO)CO", "organism": "Influenza B virus", "strain": "B/LEE", "protein": "Neuraminidase", "read-out": "IC50", "value": "271 µM"}
{"compound": "CC(=O)N[C@H]1[C@H]([C@H](O)[C@H](O)CO)OC(C(=O)O)=C[C@@H]1N", "organism": "Influenza A virus", "strain": "Influenza A/Mississippi/1/85 (H3N2)", "protein": "Sialidase", "read-out": "IC50", "value": "0.23 µM"}
{"compound": "CC(=O)Nc1c(N=C(N)N)cc(C(=O)O)cc1[C@H](O)[C@H](O)CO", "organism": "Influenza A virus", "strain": "Influenza A/Shandong/09/93 (H3N2)", "protein": "Neuraminidase", "read-out": "IC50", "value": "20 µM"}
{"compound": "CC(=O)Nc1c(O)cc(C(=O)O)cc1[N+](=O)[O-]", "organism": "Influenza B virus", "strain": "Memphis/3/89", "protein": "Neuraminidase", "read-out": "IC50", "value": "1000 µM"}
{"compound": "COCON1C(=O)[C@H]([C@H](OS(C)(=O)=O)C(C)C)N(Cc2ccc(OC)cc2)[C@@H](Cc2ccccc2)C1=O", "organism": "Influenza A virus", "protein": "Transcriptase", "read-out": "IC50", "value": ">200 µM"}
{"compound": "O=P(O)(O)OP(=O)(O)O", "organism": "Influenza virus", "protein": "RNA-dependent RNA polymerase", "read-out": "IC50", "value": "450 µM"}
{"compound": "CC(=O)N[C@@H]1[C@@H](N=C(N)N)C=C(C(=O)O)O[C@H]1C(F)(F)[C@H](O)CO", "organism": "Influenza A virus", "strain": "A/PR/8/34", "protein": "Sialidase", "read-out": "IC50", "value": "0.04 µg/mL"}
{"compound": "CC(=O)Nc1ccc(C(=O)O)cc1N", "organism": "Influenza B virus", "strain": "B/LEE/40", "protein": "Neuraminidase", "read-out": "IC50", "value": ">20000 µM"}
{"compound": "COc1cc(OC)nc(NC(=S)NC(=O)c2ccc(-c3ccccc3Cl)o2)n1", "organism": "Influenza A virus", "strain": "H1N1", "protein": "Neuraminidase", "read-out": "IC50", "value": ">20 µM"}
{"compound": "CC(=O)N[C@H]1[C@H]([C@H](N)[C@H](O)CO)OC(C(=O)O)=C[C@@H]1N=C(N)N", "organism": "Influenza A virus", "strain": "A/PR/8/34", "protein": "Sialidase", "read-out": "IC50", "value": "0.0374 µg/mL"}
{"compound": "CC(C)(C)NC(=O)NC(=S)NC(=O)C1C(C=C(Cl)Cl)C1(C)C", "organism": "Influenza A virus", "strain": "H1N1", "protein": "Neuraminidase", "read-out": "IC50", "value": "0.05 µM"}
{"compound": "CC(=O)N[C@@H]([C@@H]1OC(C(=O)O)=C[C@H](N=C(N)N)[C@H]1NC(C)=O)[C@H](O)CO", "organism": "Influenza A virus", "strain": "A/PR/8/34", "protein": "Sialidase", "read-out": "IC50", "value": "0.0181 µg/mL"}
{"compound": "CCC(CC)O[C@@H]1C(Cl)=C(C(=O)O)C[C@H](N)[C@H]1NC(C)=O", "organism": "Influenza A virus", "strain": "A/PR/8/34", "protein": "Influenza virus neuraminidase", "read-out": "IC50", "value": "3.4 µM"}
{"compound": "CCCOC1C=C(C(=O)O)C[C@H](N)[C@H]1NC(C)=O", "organism": "Influenza A virus", "protein": "Neuraminidase", "read-out": "IC50", "value": "0.06 µM"}
{"compound": "COCON1C(=O)[C@H]([C@H](O)c2ccccc2F)N(Cc2ccc(OC)cc2)[C@@H](CC(C)C)C1=O", "organism": "Influenza A virus", "protein": "Transcriptase", "read-out": "IC50", "value": ">200 µM"}
{"compound": "CCC(CC)[C@H](NC(C)=O)[C@@H]1[C@H](O)[C@@H](C(=O)O)C[C@H]1N=C(N)N", "organism": "Influenza A virus", "strain": "WILD TYPE (292)", "protein": "Influenza virus neuraminidase", "read-out": "IC50", "value": "0.0011 µM"}
{"compound": "CC(C)[C@H](C(=O)NC(=S)Nc1nc(Cl)cc(Cl)n1)c1ccc(Cl)cc1", "organism": "Influenza A virus", "strain": "H1N1", "protein": "Neuraminidase", "read-out": "IC50", "value": "0.27 µM"}
{"compound": "COCON1C(=O)/C(=C\\C(C)C)N(Cc2ccc(OC)cc2)[C@@H](Cc2ccccc2)C1=O", "organism": "Influenza A virus", "protein": "Transcriptase", "read-out": "IC50", "value": ">200 µM"}
{"compound": "NC(N)=N[C@H]1C=C(C(=O)O)O[C@@H]([C@H](O)[C@H](O)CO)C1", "organism": "Influenza A virus", "strain": "AICHI", "protein": "Influenza A sialidase", "read-out": "IC50", "value": "130 µM"}
{"compound": "CCCCCCCCCC(C(=O)O)P(=O)(O)O", "organism": "Influenza virus", "protein": "RNA-dependent RNA polymerase", "read-out": "IC50", "value": ">500 µM"}
{"compound": "CCC(=O)N[C@@H]([C@@H]1OC(C(=O)O)=C[C@H](N=C(N)N)[C@H]1NC(C)=O)[C@H](O)CO", "organism": "Influenza A virus", "strain": "A/PR/8/34", "protein": "Sialidase", "read-out": "IC50", "value": "0.048 µg/mL"}
{"compound": "CC(O)(P(=O)(O)O)P(=O)(O)O", "organism": "Influenza virus", "protein": "RNA-dependent RNA polymerase", "read-out": "IC50", "value": ">500 µM"}
{"compound": "CC(N)C12CC3CC(CC(C3)C1)C2", "organism": "Influenza A virus", "strain": "A/PR/1/74 rimantadine-susceptible", "protein": "Virion transcriptase", "read by": "nucleotide incorporation", "read-out": "inhibition", "dose": "200 µg/mL", "value": "57%"}
{"compound": "CCCC(C(=O)O)P(=O)(O)O", "organism": "Influenza virus", "protein": "RNA-dependent RNA polymerase", "read-out": "IC50", "value": ">500 µM"}
{"compound": "CCCCCCCCOC1C=C(C(=O)O)C[C@H](N)[C@H]1NC(C)=O", "organism": "Influenza A virus", "protein": "Neuraminidase", "read-out": "IC50", "value": "0.75 µM"}
{"compound": "COCON1C(=O)[C@H]([C@H](OS(C)(=O)=O)c2cccc(F)c2)N(Cc2ccc(OC)cc2)[C@@H](CC(C)C)C1=O", "organism": "Influenza A virus", "protein": "Transcriptase", "read-out": "IC50", "value": ">200 µM"}

Conditions beyond the fields shown may differ between rows. ICn is the concentration giving n% inhibition.